Measured values from several laboratories, pooled; numbers as filed in NIAID ChemDB.

All rows: whole-cell or culture tests; agent: Candida albicans; endpoint: zone

Neighbouring rows are from separate reports.

structure,strain,tested at,value
Clc1c(-c2nnc(-c3ccccc3)o2)sc2ccccc12,-,5 µg/disc,11 mm
O=c1ncc2nc(-c3ccccn3)c(-c3ccccn3)nc2[nH]1,-,500 mg/mL,30 mm
C#Cc1c(-c2ccccc2)c(C#N)c2nc(=O)c3c(-c4ccc(Cl)cc4)csc3n2c1N,-,1000 µg/mL,0 mm
C#CCn1c(C(F)(F)F)nc2ccc([N+](=O)[O-])cc21,MTCC 227,500 µg/mL,600 mm
Cc1c(CCCNC(=O)CCc2cn(C)c3ccc(Cl)cc23)c2cc(OC(F)(F)F)ccc2n1C,-,25 µg/mL,<10 mm
O=S(=O)(NC(=S)Nc1ccccc1)c1ccc(N2N=C(c3ccc(Br)cc3)CC2c2ccccc2)cc1,ATCC 2091,1000 µg/mL,26 mm
COc1ccc(-c2nn(-c3ccccc3)cc2C2CC(c3ccc(SC)cc3)=NN2c2ccccc2)cc1,MTCC 227,1000 µg/mL,0 mm
Cc1nc2ccccc2n(CC(=O)NN2C(=O)CSC2c2ccccc2O)c1=O,-,100 µg/mL,14 mm
CC(=O)N1N=C(c2sc3ccccc3c2Cl)OC1c1ccc(F)cc1,-,5 µg/disc,10 mm
N#Cc1c(-c2ccccc2)csc1N,-,1000 µg/mL,18 mm
O=C1NC(=O)C(Cc2nc3ccccc3c(=O)o2)S1,-,20000 µg/mL,11 mm
Nc1nc(COC(=O)c2ccc(Cl)cc2)cs1,-,25 µg/mL,<10 mm
CC(=O)c1cccc(-c2nnc(-c3sc4ccccc4c3Cl)o2)c1,-,5 µg/disc,11 mm
Nc1nc(COC(=O)Cc2cccc(C(F)(F)F)c2)cs1,-,25 µg/mL,<10 mm
CSc1ccc(C2=NN(c3ccccc3)C(c3cn(-c4ccccc4)nc3-c3ccccc3)C2)cc1,MTCC 227,1000 µg/mL,0 mm
COC1=CC(=O)C[C@@H](C)[C@]12Oc1c(Cl)c(OC)cc(OC)c1C2=O,-,6 µg/mL,20 mm
CC(=O)N1N=C(c2sc3ccccc3c2Cl)OC1c1ccccc1,-,5 µg/disc,14 mm
Brc1ccc(-c2nn(-c3ccccc3)cc2C2CC(c3ccc(-c4ccccc4)cc3)=NN2c2ccccc2)cc1,MTCC 227,1000 µg/mL,5 mm
O=c1[nH]cnc2nc(-c3ccccn3)c(-c3ccccn3)nc12,-,250 mg/mL,28 mm
CC(=O)Nc1ccc(Cl)cc1Sc1ncccc1[N+](=O)[O-],MTCC 227,100 µg/mL,14 mm
O=[N+]([O-])c1ccc2nc(C(F)(F)F)n(CCCCl)c2c1,MTCC 227,500 µg/mL,400 mm
Cc1nc2ccccc2n(CC(=O)NN2C(=O)CSC2c2ccc(Cl)cc2)c1=O,-,100 µg/mL,21 mm
O=C(CCc1c[nH]c2ccc(Cl)cc12)NCc1c[nH]c2ccc(Cl)cc12,-,25 µg/mL,<10 mm
Cc1nc2ccccc2n(CC(=O)NN2C(=O)CSC2c2ccc(C(F)(F)F)cc2)c1=O,-,100 µg/mL,24 mm
Nc1[nH]c(=O)nc2nc(-c3ccccn3)c(-c3ccccn3)nc12,-,500 mg/mL,30 mm
O=[N+]([O-])c1cccc(-c2nnc(-c3sc4ccccc4c3Cl)o2)c1,-,5 µg/disc,10 mm
COc1ccc(C2=CC(c3ccc(S(N)(=O)=O)cc3)C(c3ccccc3)C2Br)cc1,ATCC 2091,1000 µg/mL,23 mm
COc1cccc(C2OC(c3sc4ccccc4c3Cl)=NN2C(C)=O)c1,-,5 µg/disc,9 mm
Clc1ccc(COC(Cn2ccnc2)c2ccc(Cl)cc2Cl)c(Cl)c1,MTCC 227,100 µg/mL,19 mm
CCOC(=O)Cn1c(C(F)(F)C(F)(F)F)nc2cc(C(=O)c3ccccc3)ccc21,MTCC 227,500 µg/mL,700 mm
Cc1[nH]c2ccc(OC(F)(F)F)cc2c1CNC(=O)CCc1c[nH]c2ccc(Cl)cc12,-,25 µg/mL,<10 mm
Clc1nccc2nc(-c3ccccn3)c(-c3ccccn3)nc12,-,500 mg/mL,37 mm
Fc1ccc2c(c1)Sc1cccnc1N2CCCCN1c2ccc(F)cc2Sc2cccnc21,MTCC 227,100 µg/mL,10 mm
CSc1ccc(C2=NN(c3ccccc3)C(c3cn(-c4ccccc4)nc3-c3ccc(Br)cc3)C2)cc1,MTCC 227,500 µg/mL,2 mm
CC(=O)c1cc(C2OC(c3sc4ccccc4c3Cl)=NN2C(C)=O)ccc1O,-,5 µg/disc,9 mm
COc1ccc(C2SCC(=O)N2NC(=O)Cn2c(=O)c(C)nc3ccccc32)cc1,-,100 µg/mL,20 mm
Nc1nc(COC(=O)c2cccc([N+](=O)[O-])c2Cl)cs1,-,25 µg/mL,<10 mm
Cn1cc(CCCNC(=O)CCc2c[nH]c3ccc(Cl)cc23)c2cc(Cl)ccc21,-,25 µg/mL,<10 mm
N#Cc1ccc(C(=O)OCc2csc(N)n2)cn1,-,25 µg/mL,<10 mm
O=C1NC(=O)C(Cc2nc3ccccc3c3nc(=S)[nH]n23)S1,-,20000 µg/mL,10 mm
CC1(C)CC(=O)c2cc(C3=CC(c4ccc(Br)cc4)=CC3c3nnc4c(n3)Nc3ccccc3N4)[nH]c2C1,ATCC 2091,1000 µg/mL,23 mm
C[C@H]1[C@H](O)[C@@H](C)/C=C/C=C/C=C/C=C/C=C/C=C/C=C/[C@H](O[C@@H]2O[C@H](C)[C@@H](O)[C@H](N)[C@@H]2O)C[C@@H]2O[C@](O)(C[C@@H](O)C[C@@H](O)CC[C@H](O)[C@@H](O)C[C@@H](O)CC(=O)O[C@H]1C)C[C@H](O)[C@H]2C(=O)O,-,20000 µg/mL,19 mm
O=[N+]([O-])c1ccc2c(c1)nc(C(F)(F)F)n2CCCCl,MTCC 227,500 µg/mL,300 mm
Clc1ccc(-c2nnc(-c3sc4ccccc4c3Cl)o2)cc1,-,5 µg/disc,10 mm

A second listing of 2 rows from above:

{"structure": "Clc1ccc(-c2nnc(-c3sc4ccccc4c3Cl)o2)cc1", "tested at": "5 µg/disc", "value": "10 mm"}
{"structure": "CC(=O)Nc1ccc(Cl)cc1Sc1ncccc1[N+](=O)[O-]", "strain": "MTCC 227", "tested at": "100 µg/mL", "value": "14 mm"}

Zone: diameter of growth inhibition. An empty or dashed field is not shown.